Results from ChEMBL document CHEMBL2177030.

By UniProt entry, the sequences of proteins in these tests, tags left out. Where a name states a change or a piece, a line headed by the entry shows the natural chain unless it says otherwise.
UniProt O07427: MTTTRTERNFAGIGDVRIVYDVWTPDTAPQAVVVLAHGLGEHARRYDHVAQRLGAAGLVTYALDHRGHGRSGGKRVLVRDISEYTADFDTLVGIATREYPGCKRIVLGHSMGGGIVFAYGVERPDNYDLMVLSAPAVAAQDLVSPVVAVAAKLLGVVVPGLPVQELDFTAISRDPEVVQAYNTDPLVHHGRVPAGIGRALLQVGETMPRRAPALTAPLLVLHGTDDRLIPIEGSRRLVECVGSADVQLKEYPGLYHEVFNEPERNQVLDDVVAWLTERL

How the values were obtained:
[1] = system: Mycobacterium tuberculosis; assay: Inhibition of Mycobacterium tuberculosis LipY pre-incubated for 30 mins with enzyme before substrate addition by pH-stat technique
In short: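 Without NaTDC, LipY was incubated 30 min at 25 °C with inhibitor at xI 2–100. Residual activity was determined by pH-stat at 37 °C on TC4 in 2.5 mM Tris-HCl pH 7.5, 300 mM NaCl, 3 mM NaTDC. xI50 was taken from activity versus molar excess. Isopropanol-only controls were run. At least duplicate.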

[2] = biological target: Monoacylglycerol lipase (Mycobacterium tuberculosis H37Rv) (UniProt O07427); assay: Inhibition of Mycobacterium tuberculosis Rv0183 pre-incubated for 30 mins with enzyme before substrate addition by pH-stat technique
In short: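 Rv0183 was preincubated 30 min at 25 °C without NaTDC at inhibitor molar excess 2, 4, 20, 40 or 100. Residual monoglyceride lipase activity was measured by pH-stat at 37 °C with MC18 emulsion, pH 8.0, 3 mM NaTDC. xI50 was read from the residual-activity curve. Solvent controls were run. At least duplicate.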

[3] = biological target: T1, Cutinase 1 (Fusarium vanettenii) (UniProt P00590); assay: Inhibition of Fusarium solani pisi cutinase pre-incubated for 30 mins with enzyme before substrate addition by pH-stat technique
T1 sequence (whole entry): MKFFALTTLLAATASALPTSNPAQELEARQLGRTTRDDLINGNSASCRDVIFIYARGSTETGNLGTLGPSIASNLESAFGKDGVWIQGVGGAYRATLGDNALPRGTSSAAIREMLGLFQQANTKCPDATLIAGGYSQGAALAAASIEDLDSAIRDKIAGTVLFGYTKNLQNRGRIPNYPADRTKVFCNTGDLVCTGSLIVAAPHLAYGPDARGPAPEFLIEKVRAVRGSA
In short: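 Cutinase was preincubated for 30 min at 25 °C in 2 mM NaTDC, substrate absent, at inhibitor molar excess xI 2, 4, 20, 40 or 100. Residual activity was measured by pH-stat at 37 °C on TC4 emulsion at pH 8.0 with 0.25 mM NaTDC. xI50 is the molar excess giving 50% activity. Isopropanol controls were run. At least duplicate.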

In the case of `COC(=O)C1=C(C)OP(=O)(OC)CCC1c1ccccc1` (stereo not drawn), the XI50 [1] was “inactive”, the XI50 [2] was 16.2 molar excess and the XI50 [3] was greater than 100 molar excess.

The source made the active and inactive calls. The rule behind the calls is not given here.
